The source of these data is PubChem BioAssay AID493005 (National Center for Advancing Translational Sciences (NCATS), 2010).

The chains behind the UniProt entries cited, without tags or fusion partners. Where a name states a change or a piece, a line headed by the entry shows the natural chain unless it says otherwise.
UniProt Q99816: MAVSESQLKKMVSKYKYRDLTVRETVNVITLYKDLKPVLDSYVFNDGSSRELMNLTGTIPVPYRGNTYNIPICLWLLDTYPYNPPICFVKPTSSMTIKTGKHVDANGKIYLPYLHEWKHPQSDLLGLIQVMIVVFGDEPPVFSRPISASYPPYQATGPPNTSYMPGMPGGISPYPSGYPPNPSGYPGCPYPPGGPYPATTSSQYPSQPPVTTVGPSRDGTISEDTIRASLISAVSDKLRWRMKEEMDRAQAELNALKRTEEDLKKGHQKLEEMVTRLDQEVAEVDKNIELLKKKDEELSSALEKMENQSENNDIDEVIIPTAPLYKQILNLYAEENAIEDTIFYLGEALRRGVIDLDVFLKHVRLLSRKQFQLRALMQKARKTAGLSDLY

The structures appear in SMILES notation. The entries are a selection whose mix differs from that of the whole data set. Active and inactive are the calls of the source. Calls come from the whole dose curve; as a rule, active = well fitted inhibition curve with a large enough effect in the main read-out, with a control signal flat (not every such curve was filed as active); inconclusive = small, poorly fitted or top-dose-only effect, or effect the other way, or a change in a side signal; inactive = no such curve, though single readings can be large or run the other way.

For the assay, the target named is Tumor susceptibility gene 101 protein (Homo sapiens) (UniProt Q99816). Briefly: qHTS Assay for Iinhibitors of HIV-1 Budding by Blocking the Interaction of PTAP/TSG101. Note: % of control where 0% means no effect. The conditions noted are these: Fluorescence polarization, FITC-PTAP peptide / Tsg101 binding; at 115 µM (top of the series). From the text: NIH Molecular Libraries Probe Production Network [MLPCN] NIH Chemical Genomics Center [NCGC] MLPCN Grant: 1 R03 MH087464-01A1 PI Name: Dr. Eric Freed, NCI NCGC Assay Overview: Stages of the HIV-1 replication cycle, specifically virus assembly and release, provide underexploited targets for the development of novel antiviral inhibitors. The late stages of HIV-1 replication are mediated by the Gag precursor protein, Pr55Gag. Expression of Pr55Gag is both necessary and sufficient for the production of virus-like particles from Gag-expressing cells. The Gag protein hijacks key host proteins involved in endocytic machinery of the host cell to promote endosomal processing and viral budding. The budding process requires a direct interaction between a […] (PTAP) motif in the p6 domain of Gag and the cellular endosomal sorting protein known as Tsg101. In this way, the Gag PTAP motif promotes the host cells to recruit viral particles to the plasma membrane where the new viral particles are released, effectively turning the host cells into viral factories. A fluorescence anisotropy assay has been developed to quantitatively measure the PTAP-Tsg101 interaction which can be used to screen for inhibitors of this interaction.
NCGC Assay Protocol Summary: Two uL of the Tsg101 binding domain in buffer (10 mM HEPES pH 7.5; 0.15 M NaCl, 0.01% Tween 20; 3 mM EDTA;0.1 mM TCEP) was dispensed into Greiner black MB 1536-well plates (final concentration 10 uM). Then, 23 nL of compounds or DMSO were delivered to each well using a pin tool. Finally, 2 uL of a FITC-labeled peptide containing the PTAP motif (1) in the same buffer was dispensed (50 nM final concentration) and the binding was allowed to proceed for 20 min. at r.t. Fluorescent polarization was determined using FITC excitation and polarized emission filters on a Perkin Elmer Viewlux. Keywords: Tsg101, PTAP, Gag, HIV, fluorescent polarization, MLSMR, MLPCN, NIH Roadmap, qHTS, NCGC
As for `CCc1nc2c(n1)c1c(non1O)c1c2no[n+]1[O-]`, the activity change, negative = inhibition was inactive: -7.16%.
Take `O=[N+]([O-])c1cc([N+](=O)[O-])c(CCNc2ccccc2)c([N+](=O)[O-])c1`: the activity change, negative = inhibition is inactive: 1.77%.
Under `Cc1ccc(NP(=O)(Oc2ccccc2)Oc2ccccc2)nc1` stands inactive: -1.55%; under `COc1ccc(C2=NCC(CBr)S2)cc1` (stereo not given), inactive: -2.35%; under `COC(=O)C1(C)COP(=O)(Nc2ccccc2)OC1` (stereo not given), inactive: -0.753%.
With `O=[N+]([O-])c1cccc(NC2=NCC(CBr)S2)c1` (stereo not given), the activity change, negative = inhibition is inactive: -0.219%.
In the case of `O=C(O)CNc1ccc([As](=O)(O)O)cc1`, the activity change, negative = inhibition is inactive: -2.17%.
`CC(C)(C)C(=O)NC(Sc1ccncn1)C(Cl)(Cl)Cl` (stereo not given): the activity change, negative = inhibition is inactive: -0.341%.
The result for `O=[N+]([O-])c1ncn(CCn2ncnc2[N+](=O)[O-])n1` reads inactive: 1.05%.
As to `O=C(Nc1cc([As](=O)(O)O)ccc1O)c1ccccc1`, the activity change, negative = inhibition is inactive: -3.94%.
Take `O=P1(N(CCCl)CCCl)OCCCS1` (stereo not given): the activity change, negative = inhibition is inactive: -0.0822%.
The result for `C(Cc1nn[nH]n1)Cc1nn[nH]n1` reads inactive: 1.32%.
Under `Nc1ccc([As](=O)(O)c2ccc([N+](=O)[O-])cc2)cc1` stands inactive: -11.3%.
The result for `O=C(OC1CN2CCC1CC2)c1cccc(Cl)c1` (stereo not given) reads inactive: -3.37%; that for `O=[N+]([O-])c1ccc(O)c(/C=N/Nc2ccc([N+](=O)[O-])cc2[N+](=O)[O-])c1`, inactive: -7.37%.
`CC(=O)NC(SC(=S)N(C)C)C(Cl)(Cl)Cl` (stereo not given): the activity change, negative = inhibition is inactive: -5.41%.
`O=[N+]([O-])c1ncn(CCn2cnc([N+](=O)[O-])n2)n1`: the activity change, negative = inhibition is inactive: -6.12%.
With `O=[As](O)(c1ccccc1)c1ccc(O)cc1`, the activity change, negative = inhibition was inactive: -0.625%.
Under `C[C@H]1OP(=O)(Oc2ccccc2)[C@H](O)[C@H](O)[C@H]1N=[N+]=[N-]` (stereo not given in full) stands inactive: -3.05%; under `O=P(Nc1nc2ccccc2s1)(c1ccccc1)c1ccccc1`, inactive: 0.505%.
For the compound `COc1ccc(N)c([N+](=O)[O-])c1[N+](=O)[O-]`, the activity change, negative = inhibition is inactive: -8.51%.
Consider `O=P(Nc1ccccn1)(c1ccc(Br)cc1)c1ccc(Br)cc1`, for which the activity change, negative = inhibition was inactive: -3.33%.
The result for `CN(C)C1(CNC(=O)c2ccc(Cl)c(S(N)(=O)=O)c2)CCCCC1` reads inactive: 0.643%.
The result for `c1nnnn1CCn1cnnn1` reads inactive: 1.64%; that for `CC(C)C(=O)NC(Sc1ccccc1)C(Cl)(Cl)Cl` (stereo not given), inactive: 0.11%; that for `O=P(Nc1nccs1)(c1ccccc1)c1ccccc1`, inactive: -4.45%.
The result for `CC(=O)Nc1ccc(Oc2c([N+](=O)[O-])cc([N+](=O)[O-])cc2[N+](=O)[O-])cc1` reads inactive: -5.88%; that for `CC(=O)Nc1ccc([As](=O)(O)O)c(O)c1`, inactive: -2.01%.
Take `COC(=O)C1(C)COP(=O)(NCc2ccccc2)OC1` (stereo not given): the activity change, negative = inhibition is inactive: -1.97%.
For `CC(=O)c1ccc(N2CC2c2ccncc2)cc1` (stereo not given), the activity change, negative = inhibition was inactive: -4.21%.
Under `N#C/C(=C\c1ccc(N(CCBr)CCBr)cc1)C(N)=O` stands inactive: -2.87%.
On to `C[C@H]1OP(=O)(Oc2ccccc2)C[C@@H]2O[C@@H]21` (stereo not given in full), for which the activity change, negative = inhibition is inactive: -6.06%.
Under `C[C@@H]1C=CCP(=O)(Oc2ccccc2)O1` (stereo not given in full) stands inactive: -1.19%.
The result for `Cc1ccccc1CN(C)C(=O)COC(=O)C(O)(c1ccccc1)c1ccccc1` reads inactive: -4.74%; that for `CCc1cc(O)c([N+](=O)[O-])c(C)c1[N+](=O)[O-]`, inactive: -2.92%.
Take `CC(C)(C)C(=O)NC(Sc1ccccc1)C(Cl)(Cl)Cl` (stereo not given): the activity change, negative = inhibition was inactive: 6.44%.
Under `CCOc1ccc(C2=NCC(CBr)S2)cc1` (stereo not given) stands inactive: -2.18%.
As for `O=P1(Nc2nc3ccc(Cl)cc3s2)COc2ccccc2O1` (stereo not given), the activity change, negative = inhibition is inactive: -3.11%.
Under `O=c1c2cc([N+](=O)[O-])ccc2[nH]c2c([N+](=O)[O-])cc([N+](=O)[O-])cc12` stands inactive: -4.76%; under `CN(C)C(=O)Oc1noc2ccccc12`, inactive: 0.427%.
For `CC(NC(=O)COC(=O)C(O)(c1ccccc1)c1ccccc1)c1ccccc1` (stereo not given), the activity change, negative = inhibition was inactive: -1.21%.
Under `Cc1ccccc1OP(=O)(Nc1ccccn1)Oc1ccccc1C` stands inactive: -0.9%; under `CC(=O)NC(SC(=S)N(CC(C)C)CC(C)C)C(Cl)(Cl)Cl` (stereo not given), inactive: -7.57%.
Under `Cc1ccc(OP(=O)(Nc2ccccn2)Oc2ccc(C)cc2)cc1` stands inactive: -5.96%.
The result for `COC(=O)c1cc2c(s1)N=C(c1ccccc1)N(C)P2(=O)N1CCOCC1` (stereo not given) reads inactive: -2.26%.
Turning to `CCC(=O)N1C2C3N(C(=O)CC)C1C1N(C(=O)CC)C(C(N1C(=O)CC)N3C(=O)CC)N2C(=O)CC`, the activity change, negative = inhibition is inactive: -3.97%.
As to `O=C(OC1CN2CCC1CC2)c1ccccc1` (stereo not given), the activity change, negative = inhibition was inactive: 2.54%.
The result for `O=P1(N(CCCl)CCCl)OCCC2CCCCN21` (stereo not given) reads inactive: -1.49%.
The result for `CCNC(=S)/N=C(\N)N[N+](=O)[O-]` reads inactive: 2.59%; that for `O=C(NC1CCS(=O)(=O)C1)NP(=S)(Oc1ccccc1)Oc1ccccc1` (stereo not given), inactive: 0.764%.
